Pooled drug test results. Numbers come from NIAID ChemDB, via PubChem.

Shared fields: growth or infection tests; organism: Mycobacterium avium intracellulare; endpoint: MIC90

Blank or dashed fields: not listed here. A number after MIC or MFC names an inhibition level or a share of isolates. Conditions beyond the fields shown may differ between rows.

compound,strain,result
CC1COc2c(N3CCN(C)CC3)c(F)cc3c(=O)c(C(=O)O)cn1c23,31 strains,50 µg/mL
CC1COc2c(N3CCN(C)CC3)c(F)cc3c(=O)c(C(=O)O)cn1c23,31 strains,50 µg/mL
CC[C@H]1OC(=O)[C@H](C)[C@@H](O[C@H]2C[C@@](C)(OC)[C@@H](OC(C)=O)[C@H](C)O2)[C@H](C)[C@@H](O[C@@H]2O[C@H](C)C[C@H](N(C)C)[C@H]2O)C(C)(O)C[C@@H](C)/C(=N\OCCCC2CCCCC2)[C@H](C)[C@@H](O)[C@]1(C)O,12 strains,1.56 µg/mL
CC1COc2c(N3CCN(C)CC3)c(F)cc3c(=O)c(C(=O)O)cn1c23,N-260,100 µg/mL
C[C@H]1CN(c2c(F)cc3c(=O)c(C(=O)O)cn(C4CC4)c3c2OC(F)F)CCN1,17 strains,3.13 µg/mL
C[C@H]1COc2c(N3CCN(C)CC3)c(F)cc3c(=O)c(C(=O)O)cn1c23,31 strains,25 µg/mL
CC1COc2c(C3(N)CC3)c(F)cc3c(=O)c(C(=O)O)cn1c23,31 strains,>100 µg/mL
C[C@@H]1CN(c2c(F)c(N)c3c(=O)c(C(=O)O)cn(C4CC4)c3c2F)C[C@H](C)N1,,12.5 µg/mL
CC1COc2c(C3(N)CC3)c(F)cc3c(=O)c(C(=O)O)cn1c23,17 strains,100 µg/mL
COc1c(N2CCNC(C)C2)c(F)cc2c(=O)c(C(=O)O)cn(C3CC3)c12,31 strains,12.5 µg/mL
COc1c(N2CCNC(C)C2)c(F)cc2c(=O)c(C(=O)O)cn(C3CC3)c12,17 strains,3.13 µg/mL
CO[C@H]1/C=C/O[C@@]2(C)Oc3c(C)c(=O)c4c(O)c(c5oc6cc(N7CCCCC7)ccc6nc5c4c3C2=O)NC(=O)/C(C)=C\C=C\[C@H](C)[C@H](O)[C@@H](C)[C@@H](O)[C@@H](C)[C@H](OC(C)=O)[C@@H]1C,,2.5 µg/mL
Cc1c(F)c(N2CCNC(C)C2)cc2c1c(=O)c(C(=O)O)cn2C1CC1,17 strains,12.5 µg/mL
Cc1c(F)c(N2CCNC(C)C2)cc2c1c(=O)c(C(=O)O)cn2C1CC1,31 strains,25 µg/mL
CO[C@H]1/C=C/O[C@@]2(C)Oc3c(C)c(O)c4c(O)c(c5c(c4c3C2=O)NC2(CCN(CC(C)C)CC2)N=5)=NC(=O)/C(C)=C\C=C\[C@H](C)[C@H](O)[C@@H](C)[C@@H](O)[C@@H](C)[C@H](OC(C)=O)[C@@H]1C,21 strains,0.5 µg/mL
NNC(=O)c1ccncc1,17 strains,100 µg/mL

A second listing of 2 rows from above:

compound	strain	result
NNC(=O)c1ccncc1	17 strains	100 µg/mL
Cc1c(F)c(N2CCNC(C)C2)cc2c1c(=O)c(C(=O)O)cn2C1CC1	17 strains	12.5 µg/mL